{
  "sequences": {"note": "Protein sequences, listed by entry. Tags and fused reporters are not part of them. Lines headed by an entry give the natural chain unless they say otherwise; changes in a name come on top.", "UniProt P61076": "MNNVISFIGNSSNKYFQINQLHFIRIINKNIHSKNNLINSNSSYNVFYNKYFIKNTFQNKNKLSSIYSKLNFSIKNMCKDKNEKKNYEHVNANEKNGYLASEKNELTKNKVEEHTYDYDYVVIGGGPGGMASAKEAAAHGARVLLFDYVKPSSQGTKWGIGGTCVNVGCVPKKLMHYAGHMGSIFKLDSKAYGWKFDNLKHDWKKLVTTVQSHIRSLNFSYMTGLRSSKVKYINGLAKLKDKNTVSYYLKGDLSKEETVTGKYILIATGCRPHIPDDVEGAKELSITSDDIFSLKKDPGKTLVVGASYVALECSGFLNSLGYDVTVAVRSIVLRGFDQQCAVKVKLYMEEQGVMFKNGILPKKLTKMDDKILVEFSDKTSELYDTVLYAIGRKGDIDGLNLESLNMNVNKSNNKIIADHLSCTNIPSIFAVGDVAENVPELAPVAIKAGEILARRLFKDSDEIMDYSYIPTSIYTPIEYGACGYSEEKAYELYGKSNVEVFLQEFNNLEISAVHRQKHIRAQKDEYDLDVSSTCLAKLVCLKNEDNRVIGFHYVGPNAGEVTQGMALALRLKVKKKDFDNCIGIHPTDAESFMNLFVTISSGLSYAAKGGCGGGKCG"},
  "source": "ChEMBL document CHEMBL1146972",
  "about": "“Specific inhibitors of Plasmodium falciparum thioredoxin reductase as potential antimalarial agents” (Bioorg Med Chem Lett, 2006)",
  "target": "Thioredoxin reductase (Plasmodium falciparum 3D7, UniProt P61076)",
  "data": [
    {"smiles": "O=[N+]([O-])c1cc([N+](=O)[O-])c2nsnc2c1", "values": [
      {"measurement": "IC50", "value": 10, "unit": "µM"}
    ]}
  ]
}
